Anti-infective test results gathered from many reports (values: NIAID ChemDB through PubChem).

Shared fields: whole-cell or culture tests; organism: Mycobacterium tuberculosis

Percent inhibition refers to the dose given; in toxicity tests it is the harm to the cells.

smiles	strain or isolate	changes	read-out	cell line	dose	setting	read by	value
N#CNC1=NC(N)C(c2nc3ccccc3[nH]2)=C(CCCC(=O)Nc2cccc([N+](=O)[O-])c2)N1	H37Rv		MIC bound				BACTEC	>12.5 µg/mL
CC(C)[C@@H](C)/C=C/[C@@H](C)[C@H]1CC[C@H]2C3=CC=C4C[C@@H](O)CC[C@]4(C)[C@H]3CC[C@]12C	H37Rv		MIC					>128 µg/mL
O=C(O)C(=O)O.OC(CNCCc1ccccc1)CN1c2ccccc2Sc2ccccc21	MDR-6233		MIC				resazurin	4 µg/mL
COc1c(O)cc2oc3cc(O)c(CC=C(C)C)c(O)c3c(=O)c2c1CC=C(C)C	INH-r		MIC					6.4 µg/mL
CC1(C)CC[C@]2(C(=O)O)CC[C@]3(C)C(=CCC4[C@@]5(C)CC[C@@H](O)C(C)(C)C5CC[C@]43C)C2C1	H37Rv		MIC					16 µg/mL
CO[C@H]1/C=C/O[C@@]2(C)Oc3c(C)c(O)c4c(O)c(c(/C=N/N5CCN(C6CCCC6)CC5)c(O)c4c3C2=O)NC(=O)/C(C)=C\C=C\[C@H](C)[C@H](O)[C@@H](C)[C@@H](O)[C@@H](C)[C@H](OC(C)=O)[C@@H]1C	H37Ra		Mean MIC					0.004 µg/mL
CC1CC(NC(=S)S)CC(C)(C)C1	H37Rv		MIC bound				BACTEC	>12.5 µg/mL
COc1ccc(C(=O)/C=C/c2ccc(F)cc2)c(F)c1	H37Rv		MIC			14 d	resazurin	32 µg/mL
CO[C@H]1/C=C/O[C@@]2(C)Oc3c(C)c(O)c4c(O)c(c(/C=N/N5CCN(C6CCCC6)CC5)c(O)c4c3C2=O)NC(=O)/C(C)=C\C=C\[C@H](C)[C@H](O)[C@@H](C)[C@@H](O)[C@@H](C)[C@H](O)[C@@H]1C	H37Rv		MIC					0.03 µg/mL
COc1cccc(N2CCN(CC(O)COc3cc4c(c5c3CCCC5)CCCC4)CC2)c1	H37Rv		inhibition		6.25 µg/mL		resazurin	35%
O=C(/C=C/c1ccc(F)cc1Cl)c1ccc(F)cc1	H37Rv		MIC			7 d	MTT	32 µg/mL
O=C(c1ccncc1)N1N=C(c2ccco2)CC1(O)C(Cl)(Cl)Cl	RGH101		MIC					>268 µM
CCCCOc1ccc(NC(=S)Nc2ccc(OCCN(CC)CC)cc2)cc1	Ravenel #226		MIC					16.6 µg/mL
C/C(=C\CO)CCC[C@H](C)CCC[C@H](C)CCCC(C)C	H37Rv		MIC					2 µg/mL
C=C1C/C(=C/C)C(=O)O[C@@H]2CCN3CC=C(COC(=O)[C@]1(C)O)[C@H]23	H37Rv		MIC				BACTEC	≥128 µg/mL
NNC(=O)c1ccncc1	Isolate UT2419 (katG S315T mutation)		MIC					4 µg/mL
COc1ccc(-c2cc(=O)c3ccc(F)cc3o2)cc1	H37Rv		MIC					>12.5 µg/mL
CN(C)C/C=C(\c1ccc(Cl)cc1)c1ccc(-c2ccc(Br)cc2)cc1	H37Ra		MIC					5 µg/mL
CC(/C=N/NC(=S)SCc1ccccc1)=N\NC(N)=S	H37Rv		MIC	VERO				0.2 µg/mL
O=C(/C=C/c1ccc(F)cc1)c1ccc(F)cc1	H37Rv		MIC				MTT	32 µg/mL
Nc1ccc(C(=O)O)c(O)c1	H37Ra		Median MIC					2 µg/mL
O=C(/C=C/c1ccccc1)c1ccco1	H37Rv		MIC					19.2 µg/mL
CCOC(=O)Nc1cc(NC(O)/C(=C/O)c2cccc([N+](=O)[O-])c2)c([N+](=O)[O-])c(N)n1	H37Rv		inhibition		12.5 µg/mL			4%
C[C@@H]1CN(c2c(F)c(N)c3c(=O)c(C(=O)O)cn(C4CC4)c3c2F)C[C@H](C)N1	900145		MIC					0.2 µg/mL
CO[C@H]1/C=C/O[C@@]2(C)Oc3c(C)c(O)c4c(O)c(c(/C=N/N5CCN(C)CC5)c(O)c4c3C2=O)NC(=O)/C(C)=C\C=C\[C@H](C)[C@H](O)[C@@H](C)[C@@H](O)[C@@H](C)[C@H](OC(C)=O)[C@@H]1C	RIF-R1	rpoB mutant rifampicin-resistant	MIC				resazurin	0.42 µg/mL
CC(=O)O[C@H]1C[C@@]2(C)[C@@H](C[C@@H](O)[C@H]3[C@@]4(C)CC[C@@H](O)[C@@H](C)[C@@H]4CC[C@@]32C)/C1=C(\CCC=C(C)C)C(=O)O	H37Rv		MIC					4 µg/mL
CO[C@H]1/C=C/O[C@@]2(C)Oc3c(C)c(O)c4c(=O)c(c5oc6cc(N7CCN(CC(C)C)CC7)cc(=O)c6nc5c4c3=C2O)NC(=O)/C(C)=C\C=C\[C@H](C)[C@H](O)[C@@H](C)[C@@H](O)[C@@H](C)[C@H](OC(C)=O)[C@@H]1C	TN994		MIC					4 µg/mL
COc1ccc(-c2cc(=O)c3c(OC)cc(OC)c(I)c3o2)cc1	H37Rv		MIC					>12.5 µg/mL
O=C(/C=C/c1ccccc1)c1ccccc1	H37Rv		MIC			21 d	MTT	32 µg/mL
CCOC(=O)Nc1cc2nc(C)c(-c3ccccc3)nc2c(N)n1	H37Rv		inhibition		12.5 µg/mL			28%
C=C1C(=O)OC2C/C(C)=C/CCC3OC3[C@H](O)[C@H]12	H37Rv		MIC					16 µg/mL
O=c1cc(-c2ccccc2Br)oc2ccccc12	H37Rv		MIC					>12.5 µg/mL
C=CCNc1nc2c(s1)c1c(O)c3c(O)c(C)c4c(c32)C(=O)[C@@](C)(O/C=C/[C@H](OC)[C@@H](C)[C@@H](OC(C)=O)[C@H](C)[C@H](O)[C@H](C)[C@@H](O)[C@@H](C)/C=C/C=C(/C)C(=O)N1)O4	H37Rv		inhibition		6.25 µg/mL		resazurin	101%
COc1ccc(OC)c(-c2nc3c(N(CCc4ccccc4)Cc4ccccc4)nc(NC(=O)O)cc3[nH]2)c1	H37Rv		EC50					<12.5 µg/mL
O=C(/C=C/c1ccccc1Cl)c1ccc(F)cc1	H37Rv		MIC			7 d	resazurin	32 µg/mL
NNC(=O)c1ccncc1	H37RV #164		MIC					<0.5 µg/mL
O=C(N/N=C/c1ccccc1O)C1Cc2ccccc2C1C(Cl)Cl	H37Rv		MIC bound				BACTEC	>12.5 µg/mL
COc1nc2ccc(Br)cc2cc1[C@@H](c1ccccc1)[C@@](O)(CCN(C)C)c1cccc2ccccc12	clinical isolate MAL010075		MIC90				resazurin	0.03125 µg/mL
C/C=C1\C(=O)O[C@]23C=C[C@@H]4C(C(=O)OC)=CO[C@H](O[C@@H]12)[C@@H]43	MDR3 clinical isolate		MIC				MTT	2 µg/mL
CN[C@@H]1[C@@H](O)[C@@H](O[C@@H]2[C@@H](O)[C@H](O[C@H]3O[C@H](CN)CC[C@H]3N)[C@@H](N)C[C@H]2N)OC[C@]1(C)O	H37Ra		Median MIC					8 µg/mL
O=C(/C=C/c1ccccc1)c1ccc(I)cc1O	H37Rv		MIC					>12.5 µg/mL
O=C(c1ccncc1)N1N=C(c2cccs2)CC1(O)C(Cl)(Cl)Cl	RGH103		MIC					>257 µM
O=C(/C=C/c1ccc(F)cc1)c1ccc(O)cc1	H37Rv		MIC			21 d	MTT	32 µg/mL
O=C(c1ccncc1)N1N=CCC1(O)C(F)(F)F	RGH104		MIC					24.13 µM
CCN(CC)N1C(=O)[N+](CC)(CC)N=C1[O-]	H37Rv		inhibition		12.8 µg/mL		BACTEC	7%
CCOC(=O)Nc1cc(NC(=O)OCC)c([N+](=O)[O-])c(NC(c2ccccc2)c2ccccc2)n1	H37Rv		inhibition		12.5 µg/mL			5%
C=C1C(=O)O[C@@H]2C[C@@]3(C)CCCC4(CC4)[C@@H]3C[C@H]12	H37Rv		MIC					32 µg/mL
Cc1ccc(-c2cnnc(N3CCC(c4cccc(F)c4)C3)n2)o1	H37Rv		MIC					47.9 µM
O=C(C[n+]1ccccc1)N/N=C/c1ccc([N+](=O)[O-])s1.[Cl-]	H37Rv		MIC				BACTEC	≥12.5 µg/mL
O=C(/C=C/c1ccccc1)c1ccc(O)cc1	H37Rv		MIC			7 d	resazurin	32 µg/mL
C=C1C(=O)O[C@@H]2C[C@H](C)[C@]3(OC(C)=O)CCC(=O)[C@@]3(C)C[C@H]12	H37Rv		MIC					>128 µg/mL
NNC(=O)c1ccncc1	H37Rv (ATCC 27947)		MIC					0.06 µg/mL
COC1(CO)C(=O)N(C)CC(=O)N1C	PAS-R		MIC					12.5 µg/mL
NC[C@H]1O[C@H](O[C@H]2[C@H](O)[C@@H](O[C@H]3O[C@H](CO)[C@@H](O)[C@H](N)[C@H]3O)[C@H](N)C[C@@H]2N)[C@H](N)C[C@@H]1O	H37Ra		Mean MIC					10 µg/mL
CC(=O)OCC(COC(C)=O)=C1N=C(c2ccccc2)OC1=O	H37Rv		MIC bound				BACTEC	>12.5 µg/mL
C=C1CC[C@@H](O)[C@]2(C)CC[C@@H](C(=C)CO)[C@H](O)[C@@H]12	H37Rv		MIC					>128 µg/mL
CN(C)C/C=C(/c1ccc(-c2ccc(Br)cc2)cc1)c1ccc(S(C)(=O)=O)cc1	H37Ra		MIC					68 µg/mL
C/C(=N\NC(=O)c1cccnc1)c1cccc(/C(C)=N/NC(=O)c2cccnc2)n1	TAC-R		MIC					>12.5 µg/mL
NC[C@@H]1O[C@H](O[C@H]2[C@@H](O)[C@H](O[C@@H]3[C@@H](O)[C@H](N)C[C@H](N)[C@H]3O[C@H]3O[C@H](CO)[C@@H](O)[C@H](O)[C@H]3N)O[C@@H]2CO)[C@H](N)[C@@H](O)[C@@H]1O	H37Rv		Mean MIC					2.75 µg/mL
CN(C)CC=C(c1ccc(Br)cc1)c1ccc(-c2ccc(Br)cc2)cc1	ALI 3415		MIC					34 µg/mL
NCCCN1c2ccccc2Sc2ccccc21	MDR-6233		MIC				resazurin	2 µg/mL
COCCCn1c2c([n+](Cc3ccc([N+](=O)[O-])cc3)c1C)C(=O)c1ccccc1C2=O	H37Rv		MIC bound				resazurin	<6.25 µg/mL
CN(C)C/C=C(/c1ccccc1)c1ccc(-c2ccc(Br)cc2)cc1	H37Rv		MIC					10 µg/mL
CN[C@@H]1[C@H](O[C@H]2[C@H](O[C@H]3[C@H](O)[C@@H](O)[C@H](N=C(N)N)[C@@H](O)[C@@H]3N=C(N)N)O[C@@H](C)[C@]2(O)C=O)O[C@@H](CO)[C@H](O)[C@H]1O	H37Rv Beijing		MIC				broth dilution	0.125–0.25 µg/mL
Cn1c(C(C)(O)c2cc3c(Cl)nccc3n2C)cc2c(Cl)nccc21	H37Rv		MIC bound				resazurin	>6.25 µg/mL
CN(C)C/C=C(/c1ccc(Br)cc1)c1ccc(-c2ccc(Br)cc2)cc1	ALI 3342		MIC					8.5 µg/mL
Cc1cc2nc3ccc(=[N+](C)C)cc-3sc2cc1N	H37Rv		MIC bound				BACTEC	≤12.5 µg/mL
CCN(CC)CCOc1ccc(NC(=S)Nc2ccc(OCC(C)C)cc2)cc1	H37RV #301		MIC					31.3 µg/mL
O=C(O)C1NCCNC1C(=O)O	H37Rv		MIC				BACTEC	≥12.5 µg/mL
Cc1ccn2nc(C)c(C(=O)NCc3ccc(-c4ccc(OC(F)(F)F)cc4)nc3)c2c1	FQ-R1	gyrB fluoroquinolone-resistant	MIC				resazurin	0.04 µg/mL
COc1cccc2c1C(=O)c1c(O)c3c(c(O)c1C2=O)C[C@@](O)(C(=O)CSc1ccccn1)C[C@@H]3OC1CC(N)C(O)C(C)O1.Cl	H37Rv		MIC				BACTEC	≥12.5 µg/mL
Cc1ccc(C2=NN(C(=O)c3ccncc3)C(O)(C(F)(F)F)C2)cc1	RGH102		MIC					71.63 µM
Cn1c2cc3ccccc3cc2nc2cc3c(cc21)c(Cl)c(=O)c1ccccc13	H37Rv		MIC bound				BACTEC	>12.5 µg/mL
C=C1C(=O)O[C@H]2[C@H]1CCC1(C)O[C@@H]1CC[C@@]1(C)O[C@@H]21	H37Rv		MIC					128 µg/mL
CC1COc2c(N3CCN(C)CC3)c(F)cc3c(=O)c(C(=O)O)cn1c23	EMB-resistant 17003		MIC				broth dilution	0.5 µg/mL
CCOC(=O)Nc1cc(NC(C)CCCN(CC)CC)c2ncc(-c3ccc(Cl)c(Cl)c3)nc2n1	H37Rv		EC50	VERO				<12.5 µg/mL
CC[C@]1(Cc2ccc(OC)c(OC)c2)[C@@H]2C[C@@H](C3OCCO3)ON2O[C@H](OC2CCCC2(c2ccccc2)c2ccccc2)[C@@H]1OC(C)=O	H37Rv		inhibition		6.25 µg/mL		resazurin	29%
NNC(=O)c1ccncc1	H37Rv		Median MIC					0.05 µg/mL

a–b is a range or a potency band. ECn is the concentration giving n% inhibition of infection, replication or growth. Conditions beyond the fields shown may differ between rows. Blank or dashed fields: not listed here. MIC bound comes from a single tested concentration. A number after MIC or MFC names an inhibition level or a share of isolates.